{"source": "PubChem BioAssay AID504761 (Drosophila RNAi Screening Center, 2011)", "purpose": "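Insect host genes that dengue virus relies on to spread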 (primary screen)", "cell system": "D.Mel-2 cells from Drosophila", "reagent": "long dsRNA against Drosophila genes", "conditions": "infection with dengue virus type 2; dose and infection time not stated", "read-out": "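Per well on two replicate plates, imaging gave the percent of cells positive for viral envelope protein, ranked by infection, and a nuclear count of cells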", "scale": "infection score: higher = more virus-infected cells", "active means": "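Low infection ranks in the two replicates (chance level up to 0.065) followed by a retest with a 1.5-fold or larger significant decrease, p below 0.05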", "meaning of the calls": "active = confirmed: knock-down lowers infection; inactive = not picked or not confirmed", "note": "In all, the deposit lists about 22,000 reagents; this is a random part of those that have a named target and a result. Over the whole deposit, 116 (0.52%) got an active call. 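Calls depend on retest data that are not deposited; infection was ranked per plate without normalising between plates; the unit of the infection score is not given.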 Entries without a mark were called inactive. A plus sign joins genes that one reagent is predicted to hit. Further read-outs or replicates are left out here. No sequences are given here. Not given: the amount of reagent, the time to read-out."}
{"target gene": "Mcm7 (Minichromosome maintenance 7)", "DRSC id": "DRSC11219", "infection score, replicate 1": 6.71}
{"target gene": "Mcm7 (Minichromosome maintenance 7)", "DRSC id": "DRSC24311", "infection score, replicate 1": 7.39}
{"target gene": "otu (ovarian tumor)", "DRSC id": "DRSC18811", "infection score, replicate 1": 4.92}
{"target gene": "otu (ovarian tumor)", "DRSC id": "DRSC27953", "infection score, replicate 1": 16.2}
{"target gene": "His3:CG33818 + His3:CG33857 + His3:CG33806 + 21 more", "DRSC id": "DRSC27099", "infection score, replicate 1": 19.5}
{"target gene": "VhaM9.7-a (Vacuolar H[+] ATPase M9.7 subunit a)", "DRSC id": "DRSC08289", "infection score, replicate 1": 6.38}
{"target gene": "VhaM9.7-a (Vacuolar H[+] ATPase M9.7 subunit a)", "DRSC id": "DRSC28340", "infection score, replicate 1": 16.9}
{"target gene": "esc (extra sexcombs)", "DRSC id": "DRSC03529", "infection score, replicate 1": 32.8}
{"target gene": "esc (extra sexcombs)", "DRSC id": "DRSC28970", "infection score, replicate 1": 12}
{"target gene": "Ir92a (Ionotropic receptor 92a)", "DRSC id": "DRSC15111", "infection score, replicate 1": 3.83}
{"target gene": "CG5742", "DRSC id": "DRSC06949", "infection score, replicate 1": 17.8}
{"target gene": "CG5742", "DRSC id": "DRSC28146", "infection score, replicate 1": 15.8}
{"target gene": "nwk (nervous wreck)", "DRSC id": "DRSC10442", "infection score, replicate 1": 2.52}
{"target gene": "CG18135", "DRSC id": "DRSC10295", "infection score, replicate 1": 6.55}

2 successive reagents already listed, for reference:
{"target gene": "otu (ovarian tumor)", "DRSC id": "DRSC27953", "infection score, replicate 1": 16.2}
{"target gene": "His3:CG33818 + His3:CG33857 + His3:CG33806 + 21 more", "DRSC id": "DRSC27099", "infection score, replicate 1": 19.5}
